Patent publication EP1016405A2, “Arylating medicaments” (Radopath Pharmaceuticals International Limited, priority 1993, dated 1994)
This is a selection: effects in other tests are not listed, and their absence says nothing. A number of entries come with more than one value. This is not the full list of results. An entry can have further records. Values given together do not match, cause unknown; some may be repeats, others may stem from another dose, organism or construct than stated.

System: Chronically infected cells (H9rf)
Assay: Chronically Infected Cell Assay, HIV-1 antigen ELISA
Format: cell-based
Conditions: read-out: IC50 (Antiviral); Table 11.2; Against chronically infected cells; single assays; unit inferred

## O=[N+]([O-])c1cc([N+](=O)[O-])c(Cl)c([N+](=O)[O-])c1
  IC50: 900 nM and 2 µM
